According to PMC12781872:

What follows are sequences tested on RNAP core (alpha2 beta beta' omega) + sigmaA (assay: EMSA). Settings: holoenzyme; recombinant protein; label: SYBR Gold post-stain.

| Sequence | binding result |
| --- | --- |
| TTCGGCCCGGCCGACGACTGGTTCAAGGGATTCACCCCGGCCGCCGAGGT (double strand) [Msm hsp20 +151] | binds |
| CCGTCATGGCAAATGCCACCACAAGCCGCGTTGACACCGATCTGGATGCCCAAAGCCCGG (double strand) [Msm sigB +53] | binds |
| CGAGAAGACGAGAAAGGGAGGCACAACGATGAGCACGCTGATGAAGACG (double strand) [Msm hsp20 +48] | binds |
| GCCAAGCGCTACACCGGTCGCGGGATGCCGTTGCTCGACCTGATCCAGGAGGGGAACCTGG (double strand) [Msm sigB +349] | binds |
| GTGTATCTGAACGGCATCGGCAAGACCGCATTGCTCAATGCCGCAGACGAAGTAGAACTCGC (double strand) [Msm sigB +130] | binds |

Construct, isoform or probe ends are uncertain for at least one entry. At least one verdict rests on a figure or table, not on a statement of the authors.
